Drawing on patent US20160271244A1, this text covers EC50 (read off the curve) for one substance.

For assay [1], the target named is DP178-Q16L. Briefly: ELISA on plate-bound DP178-Q16L, 2F5 titrated (overlay with rhKYNU). For orientation: ELISA stands for enzyme-linked immunosorbent assay.
Assay [2] deals with DP178-Q16L. In words: ELISA on plate-bound MPER 2F5 peptide (DP178-Q16L), antibody titrated.

For the substance 2F5 (antibody), the EC50 (read off the curve) with DP178-Q16L [1] and with DP178-Q16L [2] was 0.02 µg/mL each time.
